System: Pa-LPS induced lung injury
Experiment: Pa-LPS-induced lung injury, immunostaining of lung sections for ceramide, NFκB and NIMP-R14
[1] = Cftr+/+ mice, 50 μg/mouse i.t., 24 hrs

Question: How did the “Pa-LPS induced NFκB levels (lung immunostaining)” value [1] turn out when Fumonisin B1 was run?
Answer: significant decrease

Question: What about the “Pa-LPS induced ceramide accumulation (lung immunostaining)” value [1] of the same substance?
Answer: significant decrease

Question: What about the “Pa-LPS induced neutrophil infiltration (NIMP-R14)” value [1] of the same substance?
Answer: significant decrease

Question: What about the “controlling Pa-LPS induced lung injury (representative sections)” value (Cftr-/- mice) of the same substance?
Answer: relatively less effective
